Results of unrelated studies side by side (data: NIAID ChemDB).

Common to all: whole-cell or culture tests; species: HIV-1; measure: EC50

ECn is the concentration giving n% inhibition of infection, replication or growth. An empty or dashed field is not shown. Neighbouring rows are from separate reports. a–b is a range or a potency band.

{"compound": "N#CC1=CC2Nc3ccccc3C2N(c2ccc([N+](=O)[O-])cc2)C1=O", "cells": "HeLa", "method": "GFP / fluorescence", "strain or isolate": "F-93BR20", "value": "0.034 µM"}
{"compound": "Cc1cc(C#N)cc(C(=O)c2cc(Cl)ccc2OCC(=O)Nc2cnc(S(N)(=O)=O)cc2C)c1", "cells": "HeLa + HELA CD4+", "changes": "RT-V108I Y181C", "method": "β-galactosidase", "strain or isolate": "HXB2", "value": "<0.01 µM"}
{"compound": "N#CC(=C1CCN(C(=O)C(=O)c2c[nH]c3c(NC(=O)NCCCCCC(=O)O)cccc23)CC1)c1ccccc1", "cells": "HeLa", "method": "luciferase / reporter gene", "value": "<1 µM"}
{"compound": "Cc1cc(S(N)(=O)=O)ccc1NC(=O)COc1ccc(Cl)cc1C(=O)c1cc(F)cc(C(F)(F)F)c1", "cells": "MT-4", "changes": "RT-Y181C", "method": "cytopathic effect / propidium iodide", "strain or isolate": "Nevirapine-resistant (RT Y181C)", "value": "<0.01 µM"}
{"compound": "C[C@H](Cn1cnc2c(N)ncnc21)OCP(=O)(O)O", "cells": "MT-2", "changes": "A62V/T68ins/V75I/A98G/K103S/G190A", "method": "recombinant virus assay", "strain or isolate": "Clinical isolate", "value": "0.088 µM"}
{"compound": "CC(C)c1ncc(CS(=O)(=O)N(CC2CCCC2)C[C@@H](O)CN(CCc2ccccc2)C(=O)c2ccccc2)s1", "cells": "CEM", "method": "p24", "strain or isolate": "IIIB", "value": "<1 µM"}
{"compound": "Nc1nc(NC2CC2)c2ncn([C@H]3C=C[C@@H](CO)C3)c2n1", "cells": "MT-2", "changes": "K65R M184V", "method": "recombinant virus assay", "strain or isolate": "Clinical isolate", "value": "0.8712 µM"}
{"compound": "CC(C)C1=C2[C@H]3CC[C@@H]4[C@@]5(C)CC[C@H](OC(=O)[C@H]6C[C@@H](C(=O)O)C6(C)C)C(C)(C)[C@@H]5CC[C@@]4(C)[C@]3(C)CC[C@@]2(CCNCc2ccc(S(C)(=O)=O)cc2)CC1=O", "cells": "MT-2", "method": "p24 / ELISA", "strain or isolate": "92HT599", "value": "<1 µM"}
{"compound": "O=C(c1ccccc1)N(CCc1ccccc1)C[C@H](O)CN(CC1CCCC1)S(=O)(=O)c1ccccn1", "cells": "CEM", "method": "p24", "strain or isolate": "IIIB", "value": "<1 µM"}
{"compound": "CC(=O)Nc1ccc(F)c2c(C(=O)C(=O)N3CCC(=C(C#N)c4cccnc4)CC3)c[nH]c12", "cells": "HeLa", "method": "luciferase / reporter gene", "value": "<1 µM"}
{"compound": "Cc1cc(S(N)(=O)=O)ccc1NC(=O)COc1ccc(Cl)cc1C(=O)c1cc(F)cc(C#N)c1", "cells": "HeLa + HELA CD4+", "method": "β-galactosidase", "strain or isolate": "WTRVA", "value": "<0.01 µM"}
{"compound": "C[C@@H]1CN(C(=O)c2ccccc2)CCN1C(=O)C(=O)c1c[nH]c2c(NC(=O)C(N)C(O)C(=O)O)cccc12", "cells": "HeLa", "method": "luciferase / reporter gene", "value": "<1 µM"}
{"compound": "CC(C)C1=C2[C@H]3CC[C@@H]4[C@@]5(C)CC[C@H](OC(=O)[C@H]6C[C@@H](C(=O)O)C6(C)C)C(C)(C)[C@@H]5CC[C@@]4(C)[C@]3(C)CC[C@@]2([C@@H](O)CNC(=O)C(C)(C)NC(=O)CN2CCOCC2)CC1=O", "cells": "MT-2", "method": "p24 / ELISA", "strain or isolate": "92HT599", "value": "<1 µM"}
{"compound": "CC1CC(C)CN(S(=O)(=O)c2ccccc2[N+](=O)[O-])C1", "cells": "HeLa", "method": "GFP / fluorescence", "strain or isolate": "6463-13", "value": "1 µM"}
{"compound": "CC(C)C1=C2[C@H]3CC[C@@H]4[C@@]5(C)CC[C@H](OC(=O)[C@H]6C[C@@H](C(=O)O)C6(C)C)C(C)(C)[C@@H]5CC[C@@]4(C)[C@]3(C)CC[C@@]2(CCNCC(C)(C)NC(=O)c2ccc(Cl)cc2O[C@@H]2CCOC2)CC1=O", "cells": "MT-2", "method": "p24 / ELISA", "strain or isolate": "92HT599", "value": "<1 µM"}
{"compound": "COc1ccc(S(=O)(=O)N(CC[C@H](O)CN2CCN(C(=O)OCc3ccccc3)C[C@H]2C(=O)NC(C)(C)C)CC(C)C)cc1", "cells": "CEM", "method": "p24", "strain or isolate": "IIIB", "value": "<1 µM"}
{"compound": "C[C@@H]1CCO[C@H]2Cn3cc(C(=O)NCc4ccc(F)cc4F)c(=O)c(O)c3C(=O)N12", "cells": "TZM-bl", "changes": "L74I/V75I", "method": "luciferase / luminescence", "value": "0.0016 µM"}
{"compound": "C[C@H]1[C@H](O)[C@@H](C)/C=C/C=C/C=C/C=C/C=C/C=C/C=C/[C@H](O[C@@H]2O[C@H](C)[C@@H](O)[C@H](N)[C@@H]2O)C[C@@H]2O[C@](O)(C[C@@H](O)C[C@@H](O)CC[C@H](O)[C@@H](O)C[C@@H](O)CC(=O)O[C@H]1C)C[C@H](O)[C@H]2C(=O)O", "cells": "PBMC", "method": "p24 / RT activity", "strain or isolate": "G3 CLADE G R5 (NSI)", "value": "0.8 µM"}
{"compound": "Cc1cc(S(N)(=O)=O)ccc1NC(=O)COc1ccc(Cl)cc1C(=O)c1cc(F)cc(F)c1", "cells": "HeLa + HELA CD4+", "changes": "RT-K103N Y181C", "method": "β-galactosidase", "strain or isolate": "HXB2 (RT-K103N Y181C) Recombinant", "value": "0.011–0.1 µM"}
{"compound": "COc1ccc(S(=O)(=O)N(CC[C@H](O)CN(CC(C)C)S(=O)(=O)c2ccc(OC)cc2)CC2CCCC2)cc1", "cells": "CEM", "method": "p24", "strain or isolate": "IIIB", "value": "<0.1 µM"}
{"compound": "Cc1ccc(C(=O)NCC[C@@]23CC[C@]4(C)[C@H](CC[C@@H]5[C@@]6(C)CC[C@H](OC(=O)[C@H]7C[C@@H](C(=O)O)C7(C)C)C(C)(C)[C@@H]6CC[C@]54C)C2=C(C(C)C)C(=O)C3)cn1", "cells": "MT-2", "method": "p24 / ELISA", "strain or isolate": "92HT599", "value": "<1 µM"}
{"compound": "O=C(c1ccccc1)N(CCc1ccccc1)C[C@H](O)CN(CC1CCCC1)S(=O)(=O)Cc1cnco1", "cells": "CEM", "method": "p24", "strain or isolate": "IIIB", "value": "<1 µM"}
{"compound": "CCC(=O)c1ccc(F)c([C@@H]2C[C@@H]2NC(=O)Nc2ccc(C#N)cn2)c1O", "cells": "TZM-bl", "changes": "NNRTI-resistant (RT K103S)", "method": "β-galactosidase / luminescence", "strain or isolate": "LAI", "value": "0.0153 µM"}
{"compound": "CC(=O)Nc1ccc(F)c2c(C(=O)C(=O)N3CC/C(=C(\\C#N)c4ccccc4)CC3C)c[nH]c12", "cells": "HeLa", "method": "luciferase / reporter gene", "value": "<1 µM"}
{"compound": "CC(C)C1=C2[C@H]3CC[C@@H]4[C@@]5(C)CC[C@H](OC(=O)[C@H]6C[C@@H](C(=O)O)C6(C)C)C(C)(C)[C@@H]5CC[C@@]4(C)[C@]3(C)CC[C@@]2([C@@H](O)CNC(=O)C(C)(C)NC(=O)C2CCNCC2)CC1=O", "cells": "MT-2", "method": "p24 / ELISA", "strain or isolate": "92HT599", "value": "<1 µM"}
{"compound": "Nc1cccc(S(=O)(=O)N(CC2CCCC2)C[C@@H](O)CN(CCc2ccccc2)C(=O)c2cccnc2)c1", "cells": "CEM", "method": "p24", "strain or isolate": "IIIB", "value": "<1 µM"}
{"compound": "Cc1cc2[nH]cnc2cc1NC(=O)COc1ccc(Cl)cc1C(=O)c1cc(F)cc(C(F)(F)F)c1", "cells": "HeLa + HELA CD4+", "method": "β-galactosidase", "strain or isolate": "WTRVA", "value": "<0.01 µM"}
{"compound": "COc1ccc(C(=O)NC(C)(C)CNCC[C@@]23CC[C@]4(C)[C@H](CC[C@@H]5[C@@]6(C)CC[C@H](OC(=O)[C@H]7C[C@@H](C(=O)O)C7(C)C)C(C)(C)[C@@H]6CC[C@]54C)C2=C(C(C)C)C(=O)C3)cc1", "cells": "MT-2", "method": "p24 / ELISA", "strain or isolate": "92HT599", "value": "<1 µM"}
{"compound": "Cc1cc(C#N)cc(C(=O)c2cc(Cl)ccc2OCC(=O)Nc2ccc(S(N)(=O)=O)cc2C)c1", "cells": "HeLa + HELA CD4+", "changes": "RT-V106A Y181C", "method": "β-galactosidase", "strain or isolate": "HXB2", "value": "<0.01 µM"}
{"compound": "CCCc1cc(=O)oc2c3c(c4c(c12)OC(C)(C)CC4)O[C@@H](C)[C@H](C)[C@@H]3O", "cells": "CEM + CEM-SS", "changes": "RT-P236L", "method": "XTT", "strain or isolate": "HEPT-resistant (RT P236L)", "value": "0.2 µM"}

The first 4 rows once more:

compound	cells	changes	method	strain or isolate	value
N#CC1=CC2Nc3ccccc3C2N(c2ccc([N+](=O)[O-])cc2)C1=O	HeLa	-	GFP / fluorescence	F-93BR20	0.034 µM
Cc1cc(C#N)cc(C(=O)c2cc(Cl)ccc2OCC(=O)Nc2cnc(S(N)(=O)=O)cc2C)c1	HeLa + HELA CD4+	RT-V108I Y181C	β-galactosidase	HXB2	<0.01 µM
N#CC(=C1CCN(C(=O)C(=O)c2c[nH]c3c(NC(=O)NCCCCCC(=O)O)cccc23)CC1)c1ccccc1	HeLa	-	luciferase / reporter gene	-	<1 µM
Cc1cc(S(N)(=O)=O)ccc1NC(=O)COc1ccc(Cl)cc1C(=O)c1cc(F)cc(C(F)(F)F)c1	MT-4	RT-Y181C	cytopathic effect / propidium iodide	Nevirapine-resistant (RT Y181C)	<0.01 µM